Reference: US9505795B2, “Method for producing scyllo-inositol” (Asahi Kasei Chemicals Corporation, priority 2012, dated 2016)

Test system: β-glucosidase (Cellobiase, Sigma)
Experiment: enzymatic decomposition of the scyllo-inositol derivative by Cellobiase (β-glucosidase), followed by HPLC
Type: biochemical, mold of the genus Aspergillus
Details: 6 mg/mL in 150 mM Bis-Tris buffer pH 7.0, 25 U/mL Cellobiase, 40° C.

For `OC[C@@H]1O[C@@H](O[C@H]2[C@H](O)[C@H](O)[C@H](O)[C@@H](O)[C@H]2O)[C@@H](O)[C@@H](O)[C@@H]1O` [scyllo-inositol derivative, 1-O-β-D-glucopyranosyl-scyllo-inositol], the “decomposition by β-glucosidase to glucose and scyllo-inositol” value (start of reaction to after 20 hours) was “decomposed completely” and the “decomposition by β-glucosidase to glucose and scyllo-inositol” value (start of reaction to hour 3) was “virtually all”.
